Assay: Solubility of ibuprofen salts in saturated solutions at room temperature (HPLC, UV detection)
Details: Glycerinmonoricinoleat
From the text: Zur Bestimmung der Löslichkeit der Ibuprofen-Salze werden bei Raumtemperatur gesättigte Lösungen hergestellt. Ein aliguoter Teil dieser Lösungen wird mit einem mit der Lösung mischbaren Lösungsmittel verdünnt und der Gehalt an Ibuprofen mittels HPLC über eine Reversed-Phase-Säule und UV-Detektion bestimmt.

Ibuprofen-Calciumsalz
Löslichkeit von Ibuprofen-Salzen bei Raumtemperatur: 64 mg Ibuprofen/ml
